A mixed list of measured activities; the numbers were collected in NIAID ChemDB.

Common to all: tests in culture; species: HIV-1; endpoint: inhibition

Conditions beyond the fields shown may differ between rows.

structure | method | tested at | strain | cell line | conditions | value
CCOCSC1=N/C(=C\c2ccc3ccc4cccc5ccc2c3c45)C(=O)N1 | ELISA / antigen | 100 µM | IIIB | MT-4 |  | <30%
CN(C(=O)[C@H](Cc1ccccc1)NC(=O)CC1NC(=O)NC1=O)c1ccc(Cl)cc1 | GFP | 0.1 µM | NL4-3 | TZM-gfp |  | 17.7%
O=c1c(-c2nnc(-c3ccc(F)cc3)o2)cnc2ccccn12 | single cycle | 100 µM | NL4-3 | HeLa |  | 18%
Nc1ccn([C@@H]2O[C@H](COP(=O)(O)O[C@@H]3[C@H](O)[C@@H](COP(=O)(O)O[C@@H]4[C@H](O)[C@@H](COP(=O)(O)O[C@@H]5[C@H](O)[C@@H](COP(=O)(O)O)O[C@H]5n5ccc(N)nc5=O)O[C@H]4n4ccc(N)nc4=O)O[C@H]3n3ccc(N)nc3=O)[C@@H](O)[C@H]2O)c(=O)n1 | cytopathic effect / neutral red | 25 µM |  | MT-2 |  | 36%
O=P(O)(O)OP(=O)(O)OP(=O)(O)OP(=O)(O)OP(=O)(O)OP(=O)(O)OP(=O)(O)OP(=O)(O)OP(=O)(O)OP(=O)(O)OP(=O)(O)OP(=O)(O)OP(=O)(O)OP(=O)(O)OP(=O)(O)O | cytopathic effect / MTT | 33.3 µg/mL | IIIB | CEM |  | 60%
O=C1[C@@H](Cc2ccccc2)NC(=S)N1c1ccccc1 | cytopathic effect / XTT | 1 µg/mL |  | MT-4 |  | 0–2%
COc1ccc(-c2cc(-c3ccc4ccc5cccc6ccc3c4c56)c(C#N)c(N)n2)cc1 | ELISA / antigen | 100 µM | IIIB | MT-4 |  | <30%
CCCC1CN(C(=O)C(=O)c2c[nH]c3c(C(=O)OC)cccc23)CCN1C(=O)c1ccccc1 | luciferase | 10 µM |  | HeLa + HELA CD4+/CCR5 |  | >98%
CC(=O)CCCCCCCCCCCC(=O)O | cytopathic effect | 10 µg/mL |  | CEM |  | 40%
C[C@@H]1CN(C(=O)c2ccccc2)CCN1C(=O)C(=O)c1c[nH]c2c(Br)ccc(F)c12 | luciferase | 10 µM |  | HeLa + HELA CD4+/CCR5 |  | >98%
CCCCN1C(=O)[C@@H](Cc2ccccc2)NC1=S | RT activity | 1 µg/mL |  | MT-4 |  | 11%
CO[C@H](C[C@H](C)CO[C@@H]1O[C@H](CO)[C@@H](O)[C@H](O)[C@H]1O)C1=C(C)[C@H]2[C@H](C[C@H]3[C@@H]4CC=C5C[C@@H](O[C@@H]6O[C@H](CO)[C@H](O[C@@H]7O[C@H](CO)[C@@H](O)[C@H](O[C@@H]8OC[C@@H](O)C(O)[C@H]8O)[C@H]7O[C@@H]7O[C@H](CO)[C@@H](O)[C@H](O)[C@H]7O)[C@H](O)[C@H]6O)CC[C@]5(C)[C@H]4CC[C@@]32C)O1 | luciferase / single cycle | 30 µM |  | SupT1 | pseudotyped | 50.15%
CN(C(=O)[C@H](Cc1ccccc1)NC(=O)CNC(=O)c1ccccc1)c1cccc(Br)c1 | GFP | 0.1 µM | NL4-3 | TZM-gfp |  | 39.18%
CC(O)[C@H]1[C@@H](OC(=O)CC[C@H](C)CO[C@@H]2O[C@H](CO)[C@@H](O)[C@H](O)[C@H]2O)C[C@H]2[C@@H]3CC=C4C[C@@H](O[C@@H]5O[C@H](CO)[C@H](O[C@@H]6O[C@H](CO)[C@@H](O)[C@H](O[C@@H]7OC[C@@H](O)C(O)[C@H]7O)[C@H]6O[C@@H]6O[C@H](CO)[C@@H](O)[C@H](O)[C@H]6O)[C@H](O)[C@H]5O)CC[C@]4(C)[C@H]3CC[C@@]21C | luciferase / single cycle | 30 µM |  | SupT1 | pseudotyped | 48.42%
O=c1c(-c2n[nH]c(=S)o2)cnc2ccccn12 | single cycle | 100 µM | NL4-3 | HeLa |  | 11%
O=C(O)CCCCCCCCCCCn1cnnc1 | cytopathic effect | 10 µg/mL | RF | CEM |  | 66%
CC1=C(CC[C@H](C)CO[C@@H]2O[C@H](CO)[C@@H](O)[C@H](O)[C@H]2O)O[C@H]2C[C@H]3[C@@H]4CC=C5C[C@@H](O[C@@H]6O[C@H](CO)[C@H](O[C@@H]7O[C@H](CO)[C@@H](O)[C@H](O[C@@H]8OC[C@@H](O)C(O)[C@H]8O)[C@H]7O[C@@H]7O[C@H](CO)[C@@H](O)[C@H](O)[C@H]7O)[C@H](O)[C@H]6O)CC[C@]5(C)[C@H]4CC[C@]3(C)[C@@H]12 | luciferase / single cycle | 30 µM |  | SupT1 | pseudotyped | 41.94%
COC(=O)c1cccc2c(C(=O)C(=O)N3CCN(C(=O)c4ccccc4)C(CC(C)C)C3)c[nH]c12 | luciferase | 10 µM |  | HeLa + HELA CD4+/CCR5 |  | 77%
COc1ccc(OCC2OC2COC(=O)c2ccc(O)c(OC)c2)cc1 | GFP / fluorescence | 125 µM |  | CEM-GFP |  | 25%
COc1c(C(=O)NCc2ccc(C)cc2)ccc2c1C(=O)N(C)C(c1ccccn1)N2 | MTT | 10 µM |  | TZM-bl |  | 9.9%
CSCSC1=N/C(=C\c2ccc3ccc4cccc5ccc2c3c45)C(=O)N1 | ELISA / antigen | 100 µM | IIIB | MT-4 |  | <30%
O=C(NCCc1ccccc1)Nc1nc2ccc(F)cc2s1 | cytopathic effect / XTT | 1 µg/mL |  | MT-4 |  | 3–100%
CN(C(=O)[C@H](Cc1ccccc1)NC(=O)CNC(=O)c1ccccc1)c1cccc(F)c1 | GFP | 0.1 µM | NL4-3 | TZM-gfp |  | 3.19%
O=C1[C@@H](c2ccccc2)NC(=S)N1c1ccccc1 | cytopathic effect / XTT | 10 µg/mL |  | MT-4 |  | 0%
CC1CN(C(=O)C(=O)c2c[nH]c3cccc(F)c23)CCN1C(=O)c1ccccc1 | luciferase | 10 µM |  | HeLa + HELA CD4+/CCR5 |  | >98%
C[C@@H](CCC(=O)[C@](C)(O)[C@H]1[C@@H](O)C[C@H]2[C@@H]3CC=C4C[C@@H](O[C@@H]5O[C@H](CO)[C@H](O[C@@H]6O[C@H](CO)[C@@H](O)[C@H](O[C@@H]7OC[C@@H](O)C(O)[C@H]7O)[C@H]6O[C@@H]6O[C@H](CO)[C@@H](O)[C@H](O)[C@H]6O)[C@H](O)[C@H]5O)CC[C@]4(C)[C@H]3CC[C@@]21C)CO[C@@H]1O[C@H](CO)[C@@H](O)[C@H](O)[C@H]1O | luciferase / single cycle | 30 µM |  | SupT1 | pseudotyped | 47.72%
O=c1c(-c2nnc(-c3ccc(Cl)cc3)s2)cnc2ccccn12 | single cycle | 100 µM | NL4-3 | HeLa |  | 39%
O=C(C(=O)N1CCN(C(=O)c2ccccc2)CC1)c1c[nH]c2c(Br)ccc(OC(F)(F)F)c12 | luciferase | 10 µM |  | HeLa + HELA CD4+/CCR5 |  | >98%
C[C@H]1O[C@H](O[C@@]23C(=O)[C@@H](O)[C@](C)(O)C[C@]2(O)C=CC2=C3C(=O)c3cccc(O)c3C2=O)CC[C@H]1O | plaque count | 1 µg/mL | LAV | MT-4 |  | 60%
CC1CN(C(=O)c2ccccc2)CCN1C(=O)C(=O)c1c[nH]c2cccc(F)c12 | luciferase | 10 µM |  | HeLa + HELA CD4+/CCR5 |  | >98%
CCOc1ccccc1CCNC(=S)Nc1nccs1 | cytopathic effect / XTT | 1 µg/mL |  | MT-4 |  | 96%
[N-]=[N+]=NCCCCCCCCCCCC(=O)O | cytopathic effect | 1 µg/mL |  | CEM |  | 82%
Cc1ccc(N(C)C(=O)[C@H](Cc2ccccc2)NC(=O)CC2NC(=O)NC2=O)cc1 | GFP | 0.1 µM | NL4-3 | TZM-gfp |  | 3.22%
CCCCCCCC(=O)NCCCCC(=O)O | cytopathic effect | 10 µg/mL |  | CEM |  | 24%
S=C(NCCc1ccccc1)N1CCOCC1 | cytopathic effect / XTT | 10 µg/mL |  | MT-4 |  | 9%
Cc1ccc(N(C)C(=O)[C@H](Cc2ccccc2)NC(=O)Cn2cc(C)c(=O)[nH]c2=O)cc1 | GFP | 0.1 µM | NL4-3 | TZM-gfp |  | 8.34%
COc1c(C(=O)NCc2ccc(C)cc2)ccc2c1C(=O)N(C)C(c1ccco1)N2 | MTT | 10 µM |  | TZM-bl |  | 8.1%
Nc1ccn([C@H]2C=C[C@@H](CO)O2)c(=O)n1 | cytopathic effect / trypan blue | 0.5 µM | LAV | MT-2 |  | 10%
COC(=O)CCCCCCCCCCC(=O)O | cytopathic effect | 10 µg/mL |  | CEM |  | 34%
Cc1cn(CC(=O)N[C@@H](Cc2ccccc2)C(=O)N(C)c2cccc(C(F)(F)F)c2)c(=O)[nH]c1=O | GFP | 0.1 µM | NL4-3 | TZM-gfp |  | 29.47%
C[C@@H](CC[C@@]1(O)O[C@H]2C[C@H]3[C@@H]4C(=O)C=C5C[C@@H](O[C@@H]6O[C@H](CO)[C@H](O[C@@H]7O[C@H](CO)[C@@H](O)[C@H](O[C@@H]8OC[C@@H](O)C(O)[C@H]8O)[C@H]7O[C@@H]7O[C@H](CO)[C@@H](O)[C@H](O)[C@H]7O)[C@H](O)[C@H]6O)CC[C@]5(C)[C@H]4CC[C@]3(C)[C@H]2[C@@H]1C)CO[C@@H]1O[C@H](CO)[C@@H](O)[C@H](O)[C@H]1O | luciferase / single cycle | 30 µM |  | SupT1 | pseudotyped | 80.78%

Two numbers with a dash give a range or band. Blank or dashed fields: not listed here. Percent inhibition refers to the dose given; in toxicity tests it is the harm to the cells.